Literature values as cited in publication PMC10974348.

Target: capsid protein (Human immunodeficiency virus 1) (UniProt O93182)

## cyclophilin A (from UniProt P62937)
  Kd: 16 µM
